Results of unrelated studies side by side (data: NIAID ChemDB).

All rows: enzyme or target tests; agent: HIV-1; target: Reverse transcriptase; read-out: IC50

ICn is the concentration giving n% inhibition. An empty or dashed field is not shown. Conditions beyond the fields shown may differ between rows.

structure,strain,changes,method,value
CC1=CCC[C@H]2[C@](C)(Cc3c(O)ccc(O)c3O)[C@@H](C)CC[C@]12C,,,,4.5 µg/mL
CC(=O)COc1ccc2c(c1OCC(C)=O)C(=O)c1ccccc1C2=O,,,,14 µM
CC(=O)Nc1c(Sc2cc(C)cc(C)c2)c(C)c[nH]c1=O,,,nucleotide incorporation,>40 µM
CC(C)Nc1cccnc1N(C)CCN(C)C(=O)c1cc2ccccc2[nH]1,,,nucleotide incorporation,<100 µM
CSc1ncc(C(=O)N(C)C)c(Nc2ccc3cn[nH]c3c2)n1,,,ELISA,~0.1 µg/mL
Nc1ncnc2c1ncn2[C@H]1CC[C@@H](COP(=O)(O)OP(=O)(O)OP(=O)(O)O)O1,,,,0.5 µM
CCOC(=O)c1[nH]c2ccc(Cl)cc2c1S(=O)(=O)c1cc(Cl)ccc1N,IIIB,,RT activity,4.7 µM
Cc1c(C(=O)N2CCN(c3ncccc3NC(C)C)CC2)[nH]c2ccccc12,,,nucleotide incorporation,<100 µM
Cc1cn([C@H]2C[C@H](F)C(COP(=O)([O-])OP(=O)([O-])OC[C@H]3O[C@@H](n4cc(C)c(=O)[nH]c4=S)C[C@@H]3F)O2)c(=S)[nH]c1=O,,,RT activity / ELISA,0.2 µM
O=C(Oc1ccc2c(c1OC(=O)c1ccccc1)C(=O)c1ccccc1C2=O)c1ccccc1,,Y181C,,>100 µM
CSc1ncc(C(=O)N(C)CCO)c(Nc2ccc3[nH]ncc3c2)n1,,,ELISA,~0.1 µg/mL
CC(C)Nc1cccnc1OCCN(C)C(=O)c1cc2ccccc2[nH]1,,,nucleotide incorporation,<100 µM
CC(=O)Oc1c(OCC(=O)c2ccc(Br)cc2)ccc2c1C(=O)c1ccccc1C2=O,,Y181C,,>100 µM
CCN1c2ncc(CCOc3ccc(-c4ccn(CC(=O)O)n4)cc3)cc2C(=O)N(C)c2cccnc21,IIIB,RT-K103N Y181C,nucleotide incorporation / radiometric,>0.1 µM
CSc1ncc(C(N)=O)c(Nc2ccc3[nH]ncc3c2)n1,,,ELISA,~0.1 µg/mL
CCN1c2ncc(CCOc3ccc(-c4ccc(CC(=O)O)cc4)cc3C)cc2C(=O)Nc2c(C)ccnc21,IIIB,,nucleotide incorporation / radiometric,<0.05 µM
CSc1ncc(C(N)=O)c(Nc2ccc3cn[nH]c3c2)n1,,,ELISA,~0.1 µg/mL
CC(C)Nc1ccnnc1N1CCN(C(=O)c2cc3cc(F)ccc3[nH]2)CC1,,,nucleotide incorporation,<100 µM
C=C(C)C1C=C[C@@H](OC(=O)c2cccnc2)C23COC(C)(C(=O)[C@@]4(OC(C)=O)C[C@H](C)[C@H](OC(=O)CC)C4[C@H]2OC(=O)CC)C13,,,nucleotide incorporation,~200 µg/mL
CCc1c(C)[nH]c(=O)c([N+](=O)[O-])c1Sc1cc(C)cc(C)c1,,,nucleotide incorporation,0.21 µM
CNC(=O)c1cnc(SC)nc1Nc1ccc2cn[nH]c2c1,,,ELISA,~0.1 µg/mL
CCOC(=O)c1[nH]c2ccc(Cl)cc2c1Sc1cc(Cl)ccc1N,IIIB,,RT activity,7 µM
CCNc1cccnc1N1CCN(Cc2cc(C(C)C)c(O)c(C(C)C)c2)CC1,,,nucleotide incorporation,>100 µM
COc1cc(Cc2cnc(/N=C3\C(=O)N(CN4CCN(c5ccc6c(c5F)c(=O)c(C(=O)O)cn6C5CC5)CC4)c4ccc(C)cc43)nc2N)cc(OC)c1OC,,,nucleotide incorporation / radiometric,28.4 µM
CSc1ncc(C(=O)NC2CC2)c(Nc2ccc3cn[nH]c3c2)n1,,,ELISA,~0.1 µg/mL
O=C(O)CCC(CCC(=O)O)(CCC(=O)O)NC(=O)CCC(CCC(=O)NC(CCC(=O)O)(CCC(=O)O)CCC(=O)O)(CCC(=O)NC(CCC(=O)O)(CCC(=O)O)CCC(=O)O)NC(=O)CCCOC(=O)C1(C(=O)OCCCC(=O)NC(CCC(=O)NC(CCC(=O)O)(CCC(=O)O)CCC(=O)O)(CCC(=O)NC(CCC(=O)O)(CCC(=O)O)CCC(=O)O)CCC(=O)NC(CCC(=O)O)(CCC(=O)O)CCC(=O)O)C2c3cc4c5c6c3-c3c(cc7c8c3C6C3c6c-5c(cc5ccc9cc(c-8c3c9c65)C7)C4)C21,,,,0.89 µM
CCN1c2ncc(CCOc3ccc(-c4cc[n+]([O-])cc4)cc3C)cc2C(=O)N(C)c2cccnc21,IIIB,RT-K103N Y181C,nucleotide incorporation / radiometric,<0.05 µM
CC(=O)Oc1ccc2c(c1OC(C)=O)C(=O)c1ccccc1C2=O,,,,>100 µM
C#CCOc1ccc(OCC#C)c2c1C(=O)c1ccccc1C2=O,,,,19 µM
CCN1c2ncc(CCOc3ccc(C(=O)Nc4ccc(C(=O)O)cc4)cc3C)cc2C(=O)Nc2c(C)ccnc21,IIIB,RT-K103N Y181C,nucleotide incorporation / radiometric,<0.05 µM
CCNc1cccnc1N1CCN(CCc2cc(C)c(O)c(C)c2)CC1,,,nucleotide incorporation,>100 µM
Cc1cn([C@H]2CC[C@@H](OCP(=O)(O)OP(=O)(O)OP(=O)(O)O)[C@@H]2F)c(=O)[nH]c1=O,,,,0.04 µM
CCCCCCCCCCCCCCCC#CCCCCCCCC(=O)O,,,RT activity / absorbance,>1000 µM
CO[C@H]1C(=O)OCC[C@H](O)c2cc(Cl)c3c(c2)[C@H](O)C[C@@H](O)C2(CO[C@]4(O)C(=C(C)C(=O)C15OC54)O2)[C@@H]3O,,,fluorescence,13.98 µM
C=C(C)C1C=C[C@@H](OC(=O)c2cccnc2)C23COC(C)(C(=O)[C@@]4(OC(C)=O)C[C@H](C)[C@H](OC(=O)CCC)C4[C@H]2OC(=O)CCC)C13,,,nucleotide incorporation,66.8 µg/mL
CCNc1cccnc1N1CCN(CCc2cc(C)c(OC)c(C)c2)CC1,,,nucleotide incorporation,>100 µM
COCCn1c(=O)nc(-c2ccc(NC(=O)CN(C)C)cc2)c2oc3ccccc3c21,BH10,,PicoGreen / fluorescence,1.4 µM
CCC(=O)COc1ccc(O)c2c1C(=O)c1ccccc1C2=O,,,,>100 µM
CC(C)Nc1cccnc1N1CCN(C(=O)c2cc3cccc(/C(O)=C/C(=O)C(=O)O)c3[nH]2)CC1,,,nucleotide incorporation,>100 µM
CCNc1cccnc1N1CCN(Cc2cc(C)c(O)c(C)c2)CC1,,,nucleotide incorporation,<100 µM
CCC(=O)COc1ccc(OC(C)=O)c2c1C(=O)c1ccccc1C2=O,,,,>100 µM
Cc1cn([C@H]2C[C@H](N=[N+]=[N-])[C@@H](COS(=O)(=O)NC(=O)OCP(=O)(O)O)O2)c(=O)[nH]c1=O,,,,300 µM
C=CCOc1ccc2c(c1OC(C)=O)C(=O)c1ccccc1C2=O,,Y181C,,>100 µM

The last 6 rows once more:

structure | strain | changes | method | value
CCC(=O)COc1ccc(O)c2c1C(=O)c1ccccc1C2=O |  |  |  | >100 µM
CC(C)Nc1cccnc1N1CCN(C(=O)c2cc3cccc(/C(O)=C/C(=O)C(=O)O)c3[nH]2)CC1 |  |  | nucleotide incorporation | >100 µM
CCNc1cccnc1N1CCN(Cc2cc(C)c(O)c(C)c2)CC1 |  |  | nucleotide incorporation | <100 µM
CCC(=O)COc1ccc(OC(C)=O)c2c1C(=O)c1ccccc1C2=O |  |  |  | >100 µM
Cc1cn([C@H]2C[C@H](N=[N+]=[N-])[C@@H](COS(=O)(=O)NC(=O)OCP(=O)(O)O)O2)c(=O)[nH]c1=O |  |  |  | 300 µM
C=CCOc1ccc2c(c1OC(C)=O)C(=O)c1ccccc1C2=O |  | Y181C |  | >100 µM